Results on 1 sequence are retold here after US20090029418.

The target of this data set is HaeIII methylase (UniProt P20589). The experiment in a line: activity in cells. The conditions noted are these: genomic DNA resistant to StuI; GGm5CC; protein in cells; protein details: pLJhaeIIIM101-1 in E. coli ER1398; only the site is given.

As to “AGGCCT (double strand) [E. coli genomic DNA StuI site]”, the “activity on this sequence” value is “active”.
